Experimental data: PubChem BioAssay AID624099 (ICCB-Longwood, 2012)
Purpose: 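Human genes that papillomavirus E2 requires to repress the HPV18 LCR promoter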 (primary screen). Cell system: human C33A cervical carcinoma cells (HPV-negative) stably expressing BPV1 E2 and an HPV18 LCR luciferase reporter. Knock-down reagent: siRNA pool against human genes, 40 nM. Timing: 72 h. Measured: 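Per-well luciferase luminescence, z-scored on each plate against the plate mean and SD with control wells left out, then averaged across three replicate plates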. Scale: mean z-score and z-score: higher = stronger reporter signal, weaker E2 silencing. Active means: 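Mean z ≥ 2 together with z ≥ 2 in two or more of the three replicates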.
In all, the deposit lists about 21,000 reagents; shown is a random part of them. Of all reagents, 497 (2.4%) are marked active. 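Higher z means weaker E2 silencing; only reporter increases were scored, and knock-downs that hurt cell survival may mask genuine repressor factors.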 A number with no mark means an inactive call.

With knock-down of AP5M1 the results were mean z-score -0.04; z-score, replicate A = -0.09; z-score, replicate B = -0.01; z-score, replicate C = -0.03. After knock-down of LINC00200, the record shows mean z-score -0.74; z-score, replicate A = -0.61; z-score, replicate B = -0.73; z-score, replicate C = -0.88. IL4I1 gave mean z-score 0.52; z-score, replicate A = 0.65; z-score, replicate B = 0.1; z-score, replicate C = 0.83. With knock-down of CASP3, the record shows mean z-score -0.7; z-score, replicate A = -0.76; z-score, replicate B = -1.06; z-score, replicate C = -0.28. After knock-down of BSX the results were mean z-score -0.61; z-score, replicate A = -0.26; z-score, replicate B = -0.42; z-score, replicate C = -1.17. For TOR1AIP1, the values are mean z-score -0.03; z-score, replicate A = -0.14; z-score, replicate B = -0.2; z-score, replicate C = 0.24.

Against ALKBH4, the values are mean z-score -1.04; z-score, replicate A = -1.14; z-score, replicate B = -1; z-score, replicate C = -0.99. ANKRD13B showed mean z-score -0.09; z-score, replicate A = -0.06; z-score, replicate B = -0.27; z-score, replicate C = 0.06. After knock-down of CLIC6, the screen gave mean z-score -0.75; z-score, replicate A = -0.47; z-score, replicate B = -0.75; z-score, replicate C = -1.02. Knock-down of LRRC75A came out at: mean z-score -0.28; z-score, replicate A = -0.47; z-score, replicate B = 0.09; z-score, replicate C = -0.45. MSS51 gave mean z-score -0.24; z-score, replicate A = -0.35; z-score, replicate B = -0.12; z-score, replicate C = -0.24. With knock-down of ASGR1, the screen gave mean z-score 1.23; z-score, replicate A = 1.22; z-score, replicate B = 1.38; z-score, replicate C = 1.08.

In a second layout: results already given
{"Target gene":"LRRC75A","mean z-score":-0.28,"z-score, replicate A":-0.47,"z-score, replicate B":0.09,"z-score, replicate C":-0.45}
{"Target gene":"MSS51","mean z-score":-0.24,"z-score, replicate A":-0.35,"z-score, replicate B":-0.12,"z-score, replicate C":-0.24}
